From patent publication US20060088533A1, “Methods of treating inflammatory bowel disease” (priority 2004, published 2006)

Molecular target: T1, EGFR (Homo sapiens, UniProt P00533)
T1 construct: endogenous in cells; host or cells: NCM460 (nontransformed human colonic epithelial cells); HT29 (colonic adenocarcinoma cells)
Assay: Western blot of EGFR phosphorylation in colonocytes exposed to C. difficile toxin
Format: cell-based
Conditions: NCM460 cells; AG1478 0.2-1.0 uM for 30 minutes, then TxB 20 nM 60 minutes
Experimental: NCM460 or HT29 cells were seeded in 12 well plates and grown to 70%-100% confluency. Cells were serum starved overnight prior to experiments. TxB or TxA were added in serum free medium at the indicated concentrations for varying lengths of time. Cells were then washed three times with ice cold phosphate buffered saline (PBS) and lysed in 1×SDS sample buffer (Cell Signaling Technology, Beverly, Mass.). Equal amounts of cell lysates were loaded onto 10% SDS-PAGE gels and transferred to nitrocellulose membranes (Bio-Rad Laboratories, Hercules, Calif.). Blots were probed with each primary antibody overnight at 4° C. and then with species-specific secondary antibodies coupled with horseradish peroxidase for 1 hour at room temperature. Peroxidase activity was detected by SuperSignal Chemiluminescent Substrate (Pierce, Rockford, Ill.). Signals were analyzed and quantified as described (Na, X. et al., EMBO J., 22:4249-4259 (2003)) and results were expressed as mean ±SD.

## COc1cc2ncnc(Nc3cccc(Cl)c3)c2cc1OC [AG1478, tyrphostin AG1478]
  Activation of EGFR by TxB: completely blocked
